Results of unrelated studies side by side (data: NIAID ChemDB).

Shared fields: whole-cell or culture tests; organism: HIV-1

ECn is the concentration giving n% inhibition of infection, replication or growth. Neighbouring rows are from separate reports. Blank or dashed fields: not listed here.

structure,cell line,method,mutations,strain or isolate,endpoint,result
CN(CCO)CC(O)Cn1c2ccc(Cl)cc2c2cc(Cl)ccc21,MT-2,luciferase / luminescence,-,NL4-3,EC50,2.9 µM
Cc1ccnc2c1NC(=O)c1cccnc1N2C1CC1,MT-4,cytopathic effect / MTT,-,IIIB,EC50,0.077 µM
Cc1cn([C@H]2C[C@H](N=[N+]=[N-])[C@@H](CO)O2)c(=O)[nH]c1=O,H9,RT activity,-,-,EC50,<25 µg/mL
COc1ccc(CN[C@@H](C(=O)N[C@H](C(=O)NCc2ccc(OC)cc2OC)C(C)C)[C@H](O)[C@H](Cc2ccccc2)NC(=O)[C@@H](NC(=O)OCc2ccccc2)C(C)C)cc1,MT-4,cytopathic effect / MTT,-,IIIB,EC50,0.41 µM
Cc1cn([C@H]2C=C[C@@H](CO)O2)c(=O)[nH]c1=O,MT-2,cytopathic effect,RT-L100I,R82150 (RT-L100I),EC50,1.8 µM
Nc1ncnc2c1ncn2CCOCP(=O)(O)O,CEM + CEM/0,syncytia,-,-,EC50,7 µM
Fc1nc(N2CCNCC2)c(F)c(Sc2ccc(Cl)cc2)c1F,MT-2,luciferase / luminescence,-,NL4-3,EC50,2 µM
CCOC(=O)C1c2cccn2S(=O)(=O)c2ccccc2N1c1ccc(C)cc1,MT-4,cytopathic effect / MTT,-,IIIB,EC50,>300 µM
Cc1c(O)cccc1C(=O)N[C@@H](Cc1ccccc1)[C@H](O)CN(CC(C)C)S(=O)(=O)c1ccc2nc(N)sc2c1,CEM,cytopathic effect / MTT,-,IIIB,EC50,0.014 µM
O=c1[nH]c(=O)n([C@H]2C[C@H](F)[C@@H](CO)O2)cc1C#CI,PBMC,-,-,-,EC50,6.9 µM
Cc1cn([C@H]2C[C@H](N=[N+]=[N-])[C@@H](CO)O2)c(=O)[nH]c1=O,C8166,syncytia,-,IIIB,EC50,<0.268 µg/mL
O=C(O)[C@@H](C1CCCCC1)N1C[C@H](CN2CCC(c3cc(Cc4ccccc4)nn3CC(F)(F)F)CC2)[C@@H](c2ccccc2)C1,HeLa,β-galactosidase,-,BaL,EC50,<0.033 µM
O=C(O[C@@H]1[C@@H](OC(=O)c2cc(O)c(O)c(O)c2)[C@H](O)[C@@H](CO)O[C@H]1O)c1cc(O)c(O)c(O)c1,MT-4,cytopathic effect / MTT,-,IIIB,EC50,>50 µg/mL
[N-]=[N+]=N[C@H]1C[C@H](n2cc(/C(Cl)=C\I)c(=O)[nH]c2=O)O[C@@H]1CO,PBMC,-,-,-,EC50,2.7 µM
CC(C)=CCOc1cc(NC(=S)c2ccoc2C)ccc1Cl,TZM-bl,luminescence,(36G)N42T N43K,NL4-3,EC50,>2000 µM
Cc1cn([C@H]2C[C@H](N=[N+]=[N-])[C@@H](COP(=O)(Nc3cc(C(=O)Nc4cc(C(=O)Nc5cc(C(=O)NCCC#N)n(C)c5)n(C)c4)n(C)c3)OC3CCCCC3)O2)c(=O)[nH]c1=O,MT-4,p24 / antigen,-,-,EC50,0.004 µM
CC(C)(C)C(=O)OCCSP(=O)(OC[C@@H]1CC[C@H](n2cnc3c(N)ncnc32)O1)SCCOC(=O)C(C)(C)C,CEM + CEM TK-,RT activity,-,LAI,EC50,0.00012 µM
O=C(O)P(=O)(O)O,MT-2,cytopathic effect,-,IIIB,EC50,19.9 µM
CC(C)[C@H](N)C(=O)OC[C@@H]1OC[C@H](n2cnc3c(N)nc(N)nc32)O1,PBMC,RT activity,-,LAI,EC50,1.7 µM
O=C1C2c3cccn3S(=O)(=O)c3ccccc3N2C(=O)CN1Cc1ccccc1,MT-4,cytopathic effect / MTT,-,IIIB,EC50,>300 µM
CN(C)CCOc1cc2c(c3ccccc13)-c1ccccc1C2=O,MT-2,luciferase / luminescence,-,NL4-3,EC50,0.83 µM
Nc1nc2c(ncn2C[C@H](OCP(=O)(O)O)C2CC2)c(=O)[nH]1,CEM,XTT,-,RF,EC50,>100 µM
O=C(O)[C@@H](C1CCCCC1)N1C[C@H](CN2CCC(c3cc(-c4ccc(Cl)cc4Cl)n[nH]3)CC2)[C@@H](c2cccc(F)c2)C1,HeLa,β-galactosidase,-,BaL,EC90,>0.3 µM
Cc1cccc(C)c1OCC(=O)N[C@@H](Cc1ccccc1)[C@H](O)CN(CC(C)C)S(=O)(=O)c1ccc2ncsc2c1,CEM,cytopathic effect / MTT,-,IIIB,EC50,0.042 µM
CN1c2ccccc2N2C(=O)CN(CCN3CCOCC3)C(=O)C2c2cccn21,MT-4,cytopathic effect / MTT,-,IIIB,EC50,198 µM
Cc1cn([C@H]2C=C[C@@H](CO)O2)c(=O)[nH]c1=O,CEM,syncytia,-,-,EC50,0.28 µM
CC(=O)SCCOP(=O)(OCCSC(C)=O)OC[C@H]1O[C@@H](n2cc(C)c(=O)[nH]c2=O)C[C@@H]1N=[N+]=[N-],MT-4,RT activity,-,LAI,EC50,0.078 µM
Cc1cn([C@H]2C[C@H](N=[N+]=[N-])[C@@H](CO)O2)c(=O)[nH]c1=O,CEM/TK-,syncytia,-,-,EC50,>100 µM
Nc1nc2c(ncn2[C@H]2CO[C@@H](CO)O2)c(=O)n1Cc1ccccc1,PBMC,RT activity,-,LAI,EC50,>100 µM
Oc1cc(O)c2c(c1)O[C@H](c1ccc(O)c(O)c1)[C@H](O)C2,MT-4,cytopathic effect / MTT,-,IIIB,EC50,>100 µg/mL
CCn1cc(Cc2ccccc2)c(C2CCN(C[C@H]3CN([C@@H](C(=O)O)C4CCCCC4)C[C@@H]3c3ccccc3)CC2)n1,HeLa,β-galactosidase,-,BaL,EC90,>0.3 µM
Cn1cc(NC(=O)c2cc(NC(=O)c3cc([N+](=O)[O-])cn3C)cn2C)cc1C(=O)NCCC#N,MT-4,p24 / antigen,-,-,EC50,>100 µM
CC(=O)SCCOP(=O)(OCCSC(C)=O)OC[C@@H]1CC[C@H](n2cnc3c(N)ncnc32)O1,Monocytes/macrophages,-,-,-,EC50,0.00001 µM
O=c1[nH]c(=O)n([C@H]2C[C@H](F)[C@@H](CO)O2)cc1/C(Cl)=C/I,PBMC,-,-,-,EC50,4.9 µM
C=CCN1C(=O)c2cccn2S(=O)(=O)c2ccccc21,MT-4,cytopathic effect / MTT,-,IIIB,EC50,5 µM
CC(C)[C@H](NC(=O)OCc1ccccc1)C(=O)N[C@@H](Cc1ccccc1)[C@@H](O)[C@@H](NCc1ccccc1)C(=O)N[C@H](C(=O)NCc1ccc(Br)cc1)C(C)C,MT-4,cytopathic effect / MTT,-,IIIB,EC50,1.7 µM
Cc1cn([C@H]2C[C@H](N=[N+]=[N-])[C@@H](COP(=O)(Nc3cc(C(=O)NCCC(=N)N)n(C)c3)OC3CCCCC3)O2)c(=O)[nH]c1=O,CEM/TK-,syncytia,-,-,EC50,0.133 µM
CC(C)CN(C[C@@H](O)[C@H](Cc1ccccc1)NC(=O)[C@@H](C)CS(C)(=O)=O)S(=O)(=O)c1ccc2ncsc2c1,CEM,cytopathic effect / MTT,-,IIIB,EC50,0.022 µM
Nc1nc(NC2CC2)c2ncn([C@H]3CO[C@@H](CO)O3)c2n1,PBMC,RT activity,-,LAI,EC50,0.85 µM
c1ccc2c(c1)Cn1ccnc1-c1nnc(-c3ccncc3)n1-2,MT-4,cytopathic effect / MTT,-,IIIB,EC50,>300 µM
O=C(O[C@H](Cc1ccc(O)c(O)c1)C(=O)O)C1=Cc2cc(O)c(O)cc2[C@@H](c2ccc(O)c(O)c2)[C@@H]1C(=O)O[C@H](Cc1ccc(O)c(O)c1)C(=O)O,MT-4,cytopathic effect / MTT,-,IIIB,EC50,>50 µg/mL
CN(C)c1nc(N)nc2c1ncn2[C@H]1CO[C@@H](CO)O1,PBMC,RT activity,-,LAI,EC50,0.87 µM
O=[N+]([O-])CC1Nc2ccccc2S(=O)(=O)n2cccc21,MT-4,cytopathic effect / MTT,-,IIIB,EC50,>7 µM
CC(C)CN(C[C@@H](O)[C@H](Cc1ccccc1)NC(=O)OCc1cncs1)S(=O)(=O)c1ccc2nc(N)sc2c1,CEM,cytopathic effect / MTT,-,IIIB,EC50,0.003 µM
O=c1[nH]cnc2c1ncn2[C@H]1CC[C@@H](CO)O1,MT-4,RT activity,-,LAI,EC50,11 µM
CCn1nc(CCc2ccccc2)cc1C1CCN(C[C@H]2CN([C@@H](C(=O)O)C3CCCCC3)C[C@@H]2c2cccc(F)c2)CC1,HeLa,β-galactosidase,-,BaL,EC50,<0.011 µM
[N-]=[N+]=Nc1nc(N)nc2c1ncn2[C@H]1CO[C@@H](CO)O1,PBMC,RT activity,-,LAI,EC50,13 µM
CC(=N)CCNC(=O)c1cc(NC(=O)c2cc(NC(=O)c3cc(NP(=O)(OC[C@@H]4C=C[C@H](n5cc(C)c(=O)[nH]c5=O)O4)OC4CCCCC4)cn3C)cn2C)cn1C,CEM/TK-,syncytia,-,-,EC50,0.77 µM
Nc1ncnc2c1ncn2[C@H]1CC[C@@H](CO)O1,CEM + CEM TK-,RT activity,-,LAI,EC50,0.49 µM
CN1C(=O)c2cccn2S(=O)(=O)c2ccccc21,MT-4,cytopathic effect / MTT,-,IIIB,EC50,10 µM
Cc1cn([C@H]2C=C[C@@H](COP(=O)(Nc3cc(C(=O)NCCC(=N)N)n(C)c3)OC(C)C)O2)c(=O)[nH]c1=O,MT-4,p24 / antigen,-,-,EC50,0.22 µM
Cc1cn([C@H]2C[C@H](N=[N+]=[N-])[C@@H](CO)O2)c(=O)[nH]c1=O,MT-2,cytopathic effect,-,IIIB,EC50,0.07 µM
CN1c2ccccc2N2C(=O)CN(CCN3CCCCC3)C(=O)C2c2cccn21,MT-4,cytopathic effect / MTT,-,IIIB,EC50,189 µM
CC(=O)N1CCC(C(=O)N(CCCN2CCC(Cc3ccc(C(N)=O)cc3)CC2)c2ccc(C)c(Cl)c2)CC1,U87 (CD4+ CCR5+) + U87,luciferase,-,R5 subtype D_1 recombinant,EC50,0.0011 µM
COc1ccc(CN[C@@H](C(=O)N[C@H](C(=O)NCc2ccc(OC)cc2O)C(C)C)[C@H](O)[C@H](Cc2ccccc2)NC(=O)[C@@H](NC(=O)OCc2ccccc2)C(C)C)cc1,MT-4,cytopathic effect / MTT,-,IIIB,EC50,0.033 µM
C[C@H]1[C@H](O)[C@@H](C)/C=C/C=C/C=C/C=C/C=C/C=C/C=C/[C@H](O[C@@H]2O[C@H](C)[C@@H](O)[C@H](N)[C@@H]2O)C[C@@H]2O[C@](O)(C[C@@H](O)C[C@@H](O)CC[C@H](O)[C@@H](O)C[C@@H](O)CC(=O)O[C@H]1C)C[C@H](O)[C@H]2C(=O)O,H9,RT activity,-,-,EC50,<5 µg/mL
CC(=O)SCCOP(=O)(OCCSC(C)=O)OC[C@@H]1CC[C@H](n2ccc(=O)[nH]c2=O)O1,MT-4,RT activity,-,LAI,EC50,2 µM
Nc1ccn([C@H]2CC[C@@H](CO)O2)c(=O)n1,H9,p24,-,RF,EC50,0.05 µM
Cn1ncc(CCc2ccccc2)c1C1CCN(C[C@H]2CN([C@@H](C(=O)O)C3CCCCC3)C[C@@H]2c2ccccc2)CC1,HeLa,β-galactosidase,-,BaL,EC50,<0.0037 µM
Nc1nc2c(ncn2C[C@H](CCF)OCP(=O)(O)O)c(=O)[nH]1,CEM,XTT,-,BRU,EC50,>100 µM
Cc1cn([C@H]2C=C[C@@H](COP(=O)(Nc3cc(C(=O)Nc4cc(C(=O)NCCC(=N)N)n(C)c4)n(C)c3)OC(C)C)O2)c(=O)[nH]c1=O,MT-4,p24 / antigen,-,-,EC50,0.2 µM
Cc1cn([C@H]2C[C@H](N=[N+]=[N-])[C@@H](CO)O2)c(=O)[nH]c1=O,H9,p24,-,RF,EC50,0.09 µM

The last 7 rows once more:

C[C@H]1[C@H](O)[C@@H](C)/C=C/C=C/C=C/C=C/C=C/C=C/C=C/[C@H](O[C@@H]2O[C@H](C)[C@@H](O)[C@H](N)[C@@H]2O)C[C@@H]2O[C@](O)(C[C@@H](O)C[C@@H](O)CC[C@H](O)[C@@H](O)C[C@@H](O)CC(=O)O[C@H]1C)C[C@H](O)[C@H]2C(=O)O ; cell line: H9 ; method: RT activity ; endpoint: EC50 ; result: <5 µg/mL
CC(=O)SCCOP(=O)(OCCSC(C)=O)OC[C@@H]1CC[C@H](n2ccc(=O)[nH]c2=O)O1 ; cell line: MT-4 ; method: RT activity ; strain or isolate: LAI ; endpoint: EC50 ; result: 2 µM
Nc1ccn([C@H]2CC[C@@H](CO)O2)c(=O)n1 ; cell line: H9 ; method: p24 ; strain or isolate: RF ; endpoint: EC50 ; result: 0.05 µM
Cn1ncc(CCc2ccccc2)c1C1CCN(C[C@H]2CN([C@@H](C(=O)O)C3CCCCC3)C[C@@H]2c2ccccc2)CC1 ; cell line: HeLa ; method: β-galactosidase ; strain or isolate: BaL ; endpoint: EC50 ; result: <0.0037 µM
Nc1nc2c(ncn2C[C@H](CCF)OCP(=O)(O)O)c(=O)[nH]1 ; cell line: CEM ; method: XTT ; strain or isolate: BRU ; endpoint: EC50 ; result: >100 µM
Cc1cn([C@H]2C=C[C@@H](COP(=O)(Nc3cc(C(=O)Nc4cc(C(=O)NCCC(=N)N)n(C)c4)n(C)c3)OC(C)C)O2)c(=O)[nH]c1=O ; cell line: MT-4 ; method: p24 / antigen ; endpoint: EC50 ; result: 0.2 µM
Cc1cn([C@H]2C[C@H](N=[N+]=[N-])[C@@H](CO)O2)c(=O)[nH]c1=O ; cell line: H9 ; method: p24 ; strain or isolate: RF ; endpoint: EC50 ; result: 0.09 µM